From PMC6456747 come the findings set out here.

Series [1] concerns the target T1, PhoP-His6 (Salmonella enterica) (UniProt P0DM78).
T1 sequence (looked up): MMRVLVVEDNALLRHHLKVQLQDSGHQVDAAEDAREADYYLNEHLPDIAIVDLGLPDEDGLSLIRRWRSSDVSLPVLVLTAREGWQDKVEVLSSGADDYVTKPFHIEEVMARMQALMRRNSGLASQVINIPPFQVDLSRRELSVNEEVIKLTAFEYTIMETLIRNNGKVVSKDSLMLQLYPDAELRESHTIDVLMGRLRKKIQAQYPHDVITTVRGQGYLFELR
Kind of series: EMSA. Conditions: 10 mM Tris pH 7.5, 0.5 mM EDTA, 1 mM MgCl2, 0.5 mM DTT, 50 mM NaCl, 5 ng/ul poly(dI-dC), room temperature 20 min, 15 ul, 80 fmol DNA, 6% native PAGE, recombinant protein, residues 1-224, protein details: C-terminal His6, probe letters rebuilt from the primers and the genome. Background: A gel shift assay detects complexes by their altered migration in electrophoresis.

The target of series [2] is T2, PmrA-His6 (Salmonella enterica) (UniProt P36556).
T2 sequence (looked up): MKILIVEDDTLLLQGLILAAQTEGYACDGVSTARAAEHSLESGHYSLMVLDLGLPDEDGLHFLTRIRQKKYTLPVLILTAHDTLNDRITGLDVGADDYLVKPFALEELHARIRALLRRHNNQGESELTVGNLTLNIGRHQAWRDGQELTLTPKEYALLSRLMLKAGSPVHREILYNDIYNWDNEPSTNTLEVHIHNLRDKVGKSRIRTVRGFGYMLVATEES
In words: EMSA. The following applies: 10 mM Tris pH 7.5, 0.5 mM EDTA, 1 mM MgCl2, 0.5 mM DTT, 50 mM NaCl, 5 ng/ul poly(dI-dC), room temperature 20 min, 15 ul, 80 fmol DNA, 6% native PAGE, recombinant protein, residues 1-222, protein details: C-terminal His6, probe letters rebuilt from the primers and the genome.

Where a protein sequence is shown, tags need not be part of it.

Consider “AGCACGCTTTATTCCCGCTCCGATTTAATCTTTTAATATATCTATCAGTTACAACATTTCTTGTTATATTATAAGAATAGAATCAACACCACAATTCCAACATAAATATCACCTGTGTTTAGAGAGAATTTACATTCCAAAAAAATAATAACTAACGCAAATATTGAACACGCGATAAAAAAGTCTATTTCGCTATAAAACCCATTATTATTAAGAGTGGTTAACTCTTCGTTGAATAAAAAATGTCAATGACGTTCCATAATTCAGGAGATGAACTTCACAAGTCATTATATATAACAGGAGGTGCTATGAAA (double strand) [pagD promoter]”, for which the binding result is listed as “binds” in series [1] (4 uM PhoP + EIIAGlc-His6 (1-32 uM), binding unaltered) and “binds” in series [1] (4 uM PhoP, no EIIANtr).

As to “CATTAACCTCTCAGGCAGACAGTGCAGCTAACTTAATAGCAATACAATTAAAATGAAATTCCGCAACGGAAGACCAGGCCAGAAACATAAAAACAGCTTTTGGGCATGCATAAAATGCCTTAAACTTTCGGCGAAAGCAAAGCATAATTCCGTTAAAAATTATCTTTTTACTTCACCTTAATTTCTTAATGTTAATTTAATCTTCATCCAGTAGGGTTCAGCTAAATGCGTTAAAAAATAAGCCCTTTTCTATTGCCGAAATATTTGAAAAGCGGCTTTCAATGGCTGAAGGAAAAATGATGTCGGACTTTTTGCCTTTCTCCCGTCCGGCGA (double strand) [pbgP promoter]”, the binding result is on record as “binds” in series [2] (4 uM PmrA + EIIANtr-His6 (1-32 uM), binding unaffected) and “binds” in series [2] (4 uM PmrA, no EIIANtr).
